Results deposited as PubChem BioAssay AID624099 (ICCB-Longwood, 2012)

- Screen: 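Host factors E2 relies on to silence an HPV18 LCR reporter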 (primary screen)
- Cell system: human C33A cervical carcinoma cells (HPV-negative) stably expressing BPV1 E2 and an HPV18 LCR luciferase reporter
- Knock-down reagent: siRNA pool against human genes, 40 nM
- Timing: 72 h
- Measurement: 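HPV18 LCR reporter light per well, converted to plate-wise z-scores that exclude control wells, and averaged over triplicate plates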
- Reading the numbers: mean z-score and z-score: higher = stronger reporter signal, weaker E2 silencing
- Active means: 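Mean z ≥ 2 together with z ≥ 2 in two or more of the three replicates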
In all, the deposit lists about 21,000 reagents; shown is an unselected part. In the full data, 497 (2.4%) are marked active. 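Higher z means weaker E2 silencing; only reporter increases were scored, and knock-downs that hurt cell survival may mask genuine repressor factors.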 Unmarked entries are inactive.

gene	mean z-score	z-score, replicate A	z-score, replicate B	z-score, replicate C
ACTR10 (actin related protein 10)	1.1	1.36	0.95	1
SLC34A2	1.22	1.51	0.96	1.2
LENEP (lens epithelial protein)	-0.38	-0.9	-0.13	-0.1
RNF11 (ring finger protein 11)	-0.33	-0.85	-0.18	0.02
DDX56 (DEAD-box helicase 56)	-1.42	-1.41	-1.42	-1.42
IL12B-AS1 (IL12B antisense RNA 1)	-0.24	-0.24	-0.43	-0.06
PAFAH1B2	0.22	0.24	0.15	0.26

3 of these entries, reformatted.
| gene | mean z-score | z-score, replicate A | z-score, replicate B | z-score, replicate C |
| --- | --- | --- | --- | --- |
| ACTR10 (actin related protein 10) | 1.1 | 1.36 | 0.95 | 1 |
| SLC34A2 | 1.22 | 1.51 | 0.96 | 1.2 |
| LENEP (lens epithelial protein) | -0.38 | -0.9 | -0.13 | -0.1 |

The list goes on.
gene	mean z-score	z-score, replicate A	z-score, replicate B	z-score, replicate C
TATDN1 (TatD DNase domain containing 1)	-1.58	-1.54	-1.54	-1.67
COX6A1P2 (COX6A1 pseudogene 2)	-0.1	-0.19	0.06	-0.18
RBM22P1 (RNA binding motif protein 22 pseudogene 1)	0.96	1.3	0.82	0.76
METTL15 (methyltransferase 15, mitochondrial 12S rRNA N4-cytidine)	0.65	1.28	0.15	0.51
EFHB (EF-hand domain family member B)	0.53	0.5	0.84	0.24
PROKR1 (prokineticin receptor 1)	-1.15	-1.61	-1.04	-0.8
ATP11AUN (ATP11A upstream neighbor lncRNA)	0.02	0.32	0.15	-0.41
PICK1 (protein interacting with PRKCA 1)	0.33	0.19	0.15	0.67
ZIM2 (zinc finger imprinted 2)	0.47	0.16	0.41	0.82
LOC339281 (retired record)	0.46	0.29	0.62	0.48
GJB4 (gap junction protein beta 4)	0.3	0.16	0.4	0.33
SF3A2 (splicing factor 3a subunit 2)	-1.24	-1.18	-1.15	-1.4
TIMM17B (translocase of inner mitochondrial membrane 17B)	0.48	0.56	0.46	0.41
RAB27B (RAB27B, member RAS oncogene family)	-0.84	-0.58	-0.98	-0.97
COG5 (component of oligomeric golgi complex 5)	2.72 (active)	2.79	2.68	2.69
TMEM60 (transmembrane protein 60)	-0.58	-0.65	-0.5	-0.59
